In US20190391160A1 (priority 2016, published 2019) one finds Ki data, which are given here for one compound.

Assay [1] concerns the target PLA2 activity of CB/NBD1 complex (Crotalus durissus terrificus, UniProt C0HM14). Nature of the assay: Spectrofluorimetric PLA2 activity assay, inhibition by PMS 1062, CB/NBD1 complex. The settings on record: read-out: Inhibition constant (Ki), β-py-C10-PG 5 and 10 μM, Dixon plot. Format: biochemical.
The target in assay [2] is PLA2 enzymatic activity of CB (Crotalus durissus, UniProt C0HM14). Nature of the assay: Spectrofluorimetric PLA2 activity assay, inhibition by PMS 1062. The conditions noted are these: read-out: Inhibition constant (Ki); CB alone, β-py-C10-PG 5 and 10 μM, Dixon plot, competitive.

Consider `CCCCCCCCCCCCCCOc1ccc(Cc2noc(=O)[nH]2)cc1`, for which the results for the Ki in assay [1] and in assay [2] were 480 nM and 25 nM, respectively.
